{
  "source": "paper PMC11026403",
  "about": "(Communications Biology, 2024)",
  "biological_target": "A/Denmark/524/2009 (H1N1)pdm09 NA-H274 (Influenza A virus, UniProt C3W5S3)",
  "format": "biochemical",
  "data": [
    {"compound": "CC(=O)N[C@H]1[C@H]([C@H](O)[C@H](O)CO)OC(C(=O)O)=C[C@@H]1N=C(N)N", "note": "[zanamivir]", "values": [
      {"measurement": "IC50", "result": 0.31, "unit": "nM"}
    ]}
  ]
}
